Pooled drug test results. Numbers come from NIAID ChemDB, via PubChem.

Shared fields: growth or infection tests; species: HIV-2

Blank or dashed fields: not listed here. Lines come from different laboratories, so protocols vary. Percent inhibition refers to the dose given; in toxicity tests it is the harm to the cells. ECn: concentration that inhibits the pathogen or its effect by n%.

| compound | strain | cells | method | conditions | endpoint | tested at | value |
|---|---|---|---|---|---|---|---|
| O=c1[nH]cnc2c1ncn2[C@H]1CC[C@@H](CO)O1 | 1010 | PBMC | ELISA | - | EC50 | - | 5.24 µM |
| CC(C)=CCN1Cc2cccc3[nH]c(=S)n(c23)C[C@@H]1C | ROD | PBMC | RT activity | - | EC90 | - | >6.25 µM |
| CO[C@@H]1[C@@H](O)[C@@H](O)[C@H](O)[C@H](O)[C@H]1n1cnc2c(N)ncnc21 | - | MT-4 | cytopathic effect / MTT | - | inhibition | 10 µg/mL | 32.4% |
| C#C[C@]1(CO)O[C@@H](n2cnc3c(N)nc(F)nc32)CC1O | ROD9 | MAGIC-5A | β-galactosidase / absorbance | - | EC50 | - | 0.00042 µM |
| Nc1ncnc2c1ncn2[C@H]1CC[C@@H](CO)O1 | ROD | MOLT-4/C8 + MOLT-4 | - | - | EC50 | - | 5.5 µM |
| C1CNCCNCCCN(CCCN2CCCNCCNCCCNCC2)CCNC1 | EHO | MT-4 | cytopathic effect / MTT | - | EC90 | - | 3.6 µM |
| CC(C)Nc1cccnc1N1CCN(C(=O)c2cc3cc(NS(C)(=O)=O)ccc3[nH]2)CC1 | ROD | PBMC | RT activity | - | EC90 | - | >62.5 µM |
| CO[C@@H]1[C@@H](O)[C@@H](O)[C@H](O)[C@H](O)[C@H]1n1cnc2c(N)ncnc21.O=C(O)/C=C/C(=O)O | - | MT-4 | cytopathic effect / MTT | - | inhibition | 10 µg/mL | 44.2% |
| Cc1cn([C@H]2C[C@H](N=[N+]=[N-])[C@@H](CO)O2)c(=O)[nH]c1=O | CDC310319 | PBMC | cytopathic effect / XTT | clinical isolate | EC50 | - | 0.003 µM |
| CO[C@H]1[C@@H](O)[C@H](n2ccc(N)nc2=O)[C@@H](O)[C@H](O)[C@@H]1O | - | MT-4 | cytopathic effect / MTT | - | inhibition | 10 µg/mL | 46.8% |
| Nc1ccn([C@H]2CC[C@@H](CO)O2)c(=O)n1 | LAV-2 | CEM | virus yield | - | inhibition | 0.001 µM | 99.9% |
| C1CNCCNCCCN[C@H]([C@@H]2CNCCCNCCNCCCN2)CNC1 | ROD | MT-4 | cytopathic effect / MTT | - | EC90 | - | 0.87 µM |
| CO[C@@H]1[C@@H](O)[C@@H](O)[C@H](O)[C@H](O)[C@H]1n1ccc(N)nc1=O | - | MT-4 | cytopathic effect / MTT | - | inhibition | 10 µg/mL | 45.2% |
| Nc1ncnc2c1ncn2[C@H]1C=C[C@@H](CO)O1 | ROD | C8166 | - | - | EC50 | - | 32 µM |